# Results reported in PMC9769707.
# Target: T1, Dnr (Pseudomonas aeruginosa PAO1) (UniProt Q51441)
# T1 sequence: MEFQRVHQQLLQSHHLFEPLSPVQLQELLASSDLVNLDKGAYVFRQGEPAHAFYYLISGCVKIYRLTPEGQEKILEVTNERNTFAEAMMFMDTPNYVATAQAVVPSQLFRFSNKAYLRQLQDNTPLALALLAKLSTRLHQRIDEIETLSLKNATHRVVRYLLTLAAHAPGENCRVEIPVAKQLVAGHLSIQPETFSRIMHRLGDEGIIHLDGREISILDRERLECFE
# Test: EMSA
# Conditions: recombinant protein; residues 1-227; protein details: N-terminal His6 (pET28a); probe letters rebuilt from the primers and the genome
sequence,measurement,value
GGACCGCCCATCTCGATTAATTTCTCTAACAATTCCCGTGCCAGTCTTTTCGTGGCTCTTTTAATCAATCTCATTCAATGGCTTATTGTTATCCATGTCTCATTCTGAAAAGAAATATAACAAGTGAATTGAGCAAGAAGTTGCGCAGTGCTGTGCAACTTTTTGCGCAGTAGTGTTCAGGCCAGTATTTTCAAGGGCTGTGGACTGTTATTGGGGATGTTTCTTGGTTTTCATTGTGCAACTTCTTGCACAATCGCTATTACGCTCTAAATCAGCTGTTGGTCCGCTTGGAAGGCCTATGTTTCGAGGCTCTCCGGAGAAATCCATACTGCCTGCCTTATTTTTTATAAATTGTTAACTACCTGTTTTGGTAGGGTTTTCCAAATGGCCATCAATGTCGTTATGATGGCTATAGCCAAGCCGTAAAGGGCATGGACGCAGACGCCTGACGTTTGGCTGAAAATCTTTCATTGATTCGTATCAATGAATAGGAAAATTCCCAAAGAGGGAATGTCCTGTTGCTTGCCAGTTTTTATGTTGTTTTCATGGAAAAGGCAAAGAGCTCTTCAGACTATTGGGATTTTCGTTCGGTTTTTATGCCAACTAGTTGAATTGTTAAGATATTCATTGGCGCACATGGTGTGCATTGAAGGGTTAGGATGACCTATTCGAGCAAGCTCTCCTCGCAT (double strand) [hsiA2 promoter fragment],binding result,binds
GGATACGTTCCTTGTCGTTGAAAGTGCCCAGGCGATATGCCGGGGGCATCGGTGCTAGACAAGAACCGTGCCACTAGTCTTGAAACTCTTTTCCATCAAGGCGTTATTGGGGGAAGCCAAAAATTCGCTGGCGATTCTCATGGGAAGAACACTGAAAATTGCGCAACTTTTTGCGCACCGCTTGCAAAAAGTTGCGCACTCTCTCGGAGCCCTTTGGGTATTTGTTCCCTAGCGTTCTATCCACAACGTTATCAACCAAAAAGTTGCACAGTTCTTCATTGGCAAGGTAGGCGAAGATAGCGCCGCACGGTTTCGTTCCATCGGCCCAGGGTGAAGGAAAGTGAGTTATCGGAGAGGTTGGGGGCTGAAAGATATGGCCAGTTATGGCCAAAAGCCCTCTATGGAGAGGGCTTTTGGGGTAGGGCCAGCAGGGTTGTTCTGCTGCGGGGAACCGGAGGTGCGGTTCTTAGCCTTTCGGCCAAGGC (double strand) [hcp2 promoter fragment],binding result,binds
